Measured values from several laboratories, pooled; numbers as filed in NIAID ChemDB.

Common to all: target-level tests; agent: HIV-1; target: Protease

An empty or dashed field is not shown.

smiles,read-out,changes,read by,strain or isolate,setting,value
Cc1ccc(Cl)cc1N1CCN(Cc2cn([C@@H](Cc3ccccc3)[C@H](Cc3ccccc3)NC(=O)OC3CCCCCC3)nn2)CC1,IC50,-,fluorescence,-,-,<5 µM
CC(C)(C)OC(=O)N[C@@H](Cc1ccccc1)C(O)C(O)[C@H](Cc1ccccc1)NC(=O)OC(C)(C)C,IC50,-,fluorescence,-,-,>0.01 µM
CC(=O)N[C@H](C(=O)N[C@@H](Cc1ccccc1)[C@H](O)CN1C[C@H]2CCCC[C@H]2C[C@H]1C(=O)NC(C)(C)C)C(C)(C)C,IC50,-,-,-,-,0.0085 µM
CCCC(=O)c1cccc(CN2C(=O)N(Cc3cccc(C(=O)CCC)c3)[C@H](Cc3ccccc3)[C@H](O)[C@@H](O)[C@H]2Cc2ccccc2)c1,Ki,-,fluorescence,RF,-,0.0014 µM
COC(=O)N[C@@H](Cc1ccccc1)[C@H](Cc1ccccc1)n1cc(CN2CCN(c3cc(Cl)ccc3C)CC2)nn1,IC50,-,fluorescence,-,-,>5 µM
CC(C)(C)NC(=O)[C@@H]1C[C@@H]2CCCC[C@@H]2CN1C[C@@H](O)[C@H](Cc1ccccc1)NC(=O)CC(C)(C)S(C)(=O)=O,IC50,-,-,-,-,0.06 µM
CCCCCCCCCCCCCCCC(=O)N[C@@H](CO)C(=O)N[C@@H](Cc1ccc2ccccc2c1)C(=O)N[C@@H](CC(=O)O)C(=O)N[C@@H](CC(C)C)C(=O)O,IC50,-,fluorescence,-,-,0.2 µM
O=C1N(Cc2cccc(/C=N/O)c2)[C@H](Cc2ccccc2)[C@H](O)[C@@H](O)[C@@H](Cc2ccccc2)N1Cc1cccc(/C=N/O)c1,Ki,-,fluorescence,RF,-,0.00001 µM
CC(C)(C)OC(=O)N[C@@H](Cc1ccccc1)[C@H](O)CNC[C@@H](O)[C@H](Cc1ccccc1)NC(=O)OC1CCCOC1,IC50,-,HPLC,-,pH 5.5,<10 µM
C/C(=N\O)c1cccc(CN2C(=O)N(Cc3cccc(/C(C)=N/O)c3)[C@H](Cc3ccccc3)[C@H](O)[C@@H](O)[C@H]2Cc2ccccc2)c1,Ki,-,fluorescence,RF,-,0.000018 µM
Cc1cc(SC2=C(O)CC(CCc3ccccc3)(c3ccccc3)OC2=O)c(C(C)(C)C)cc1CO,Ki,-,-,-,pH 6.2,0.00009 µM
Cc1ccc(Cl)cc1N1CCN(Cc2cn([C@@H](Cc3ccccc3)[C@H](Cc3ccccc3)NC(=O)OCC3CC3)nn2)CC1,IC50,-,fluorescence,-,-,<5 µM
CNC(=O)[C@@H](NC(=O)[C@H](OCc1ccccc1)[C@H](O)[C@@H](O)[C@@H](OCc1ccccc1)C(=O)N[C@H]1c2ccccc2C[C@H]1O)C(C)C,Ki,PR-I84V L90M,-,-,-,0.001 µM
O=C(N[C@@H](Cc1ccccc1)[C@H](Cc1ccccc1)n1cc(CN2CCN(c3ccc(C(F)(F)F)cc3)CC2)nn1)OC1CCCC1,IC50,-,fluorescence,-,-,~5 µM
CC(C)[C@H](NC(=O)OCc1ccccc1)C(=O)N[C@@H](Cc1ccccc1)[C@H](O)[C@H](O)[C@H](Cc1ccccc1)NC(=O)OC(C)(C)C,IC50,-,fluorescence,-,-,<0.005 µM
CNC(=O)CN1[C@H](COc2ccccc2)[C@H](O)[C@@H](O)[C@@H](COc2ccccc2)N(CC(=O)NC)S1(=O)=O,Ki,PR-G48V L90M,-,-,-,24 µM
NC(=O)C[C@H](NC(=O)OCc1ccccc1)C(=O)N[C@@H](Cc1ccccc1)[C@H](O)C(=O)N1CCC[C@H]1C(=O)NC1CCCCC1,IC50,-,HPLC,-,-,0.32 µM
Cc1ccc(Cl)cc1N1CCN(Cc2cn([C@@H](Cc3ccccc3)[C@H](Cc3ccccc3)NC(=O)O[C@@H]3CCOC3)nn2)CC1,IC50,-,fluorescence,-,-,<5 µM
CCCCCCCCCCCCCCCC(=O)N[C@@H](Cc1ccc(O)cc1)C(=O)N[C@@H](CCC(=O)O)C(=O)N[C@@H](CC(C)C)C(=O)O,IC50,-,fluorescence,-,-,0.15 µM
CC(C)(C)OC(=O)N[C@@H](Cc1ccccc1)[C@H](O)CNC[C@@H](O)[C@H](Cc1ccccc1)NC(=O)c1ccc2ccccc2c1,IC50,-,HPLC,-,pH 5.5,<10 µM
O=C1N(Cc2ccc(O)cc2)[C@H](Cc2ccccc2)[C@H](O)[C@@H](O)[C@@H](Cc2ccccc2)N1Cc1cccc(-c2ccn[nH]2)c1,Ki,-,fluorescence,RF,-,0.000021 µM
CC(C)[C@H](NC(=O)OCc1ccccc1)C(=O)N[C@@H](Cc1ccccc1)[C@H](O)CNC[C@@H](O)[C@H](Cc1ccccc1)NC(=O)OC(C)(C)C,IC50,-,HPLC,-,pH 5.5,<10 µM
CC(C)(C)CNC(=O)[C@@H]1CCCN1C(=O)[C@@H](O)[C@H](Cc1ccccc1)NC(=O)[C@H](CC(N)=O)NC(=O)OCc1ccccc1,IC50,-,HPLC,-,-,0.868 µM
CC(C)C[C@H](NC(=O)[C@H](CCC(=O)O)NC(=O)[C@@H](N)Cc1ccc(O)cc1)C(=O)O,IC50,-,fluorescence,-,-,75 µM
O=C1N[C@H](Cc2ccccc2)[C@H](O)[C@@H](O)[C@@H](Cc2ccccc2)N1Cc1cccc(-c2ccn[nH]2)c1,Ki,-,fluorescence,RF,-,0.00026 µM
CN1[C@H](COc2ccccc2)[C@H](O)[C@@H](O)[C@@H](COc2ccccc2)N(C)S1(=O)=O,Ki,PR-G48V L90M,-,-,-,3.5 µM
CC(=O)N[C@H](C(=O)N[C@@H](Cc1ccccc1)[C@H](O)CN1C[C@H]2CCCC[C@H]2C[C@H]1C(=O)NC(C)(C)C)C(C)(C)S(C)(=O)=O,IC50,-,-,-,-,0.0029 µM
CC(C)(C)OC(=O)NC(Cc1ccccc1)C(O)C(Cc1ccccc1)NC(=O)[C@H](CC(N)=O)NC(=O)OCc1ccccc1,IC50,-,fluorescence,-,-,<0.1 µM
CSC[C@H](NC(=O)COc1cccc(Nc2ccccc2)c1)C(=O)N[C@@H](Cc1ccccc1)[C@H](O)C(=O)N1CSC(C)(C)[C@H]1C(=O)NC(C)(C)C,Ki,-,HPLC,-,-,0.000184 µM
CC(C)C[C@@H](C=O)NC(=O)[C@H](CCC(=O)O)NC(=O)[C@H](Cc1ccc(O)cc1)NC(=O)CCCc1ccccc1,Ki,-,fluorescence,-,-,11 µM
CC(C)(C)COC(=O)N[C@@H](Cc1ccccc1)[C@H](O)CNC[C@@H](O)[C@H](Cc1ccccc1)NC(=O)OCC(C)(C)C,IC50,-,HPLC,-,pH 5.5,10 µM
O=C1N(Cc2cccc(/C(=N\O)C(F)(F)F)c2)[C@H](Cc2ccccc2)[C@H](O)[C@@H](O)[C@@H](Cc2ccccc2)N1Cc1cccc(/C(=N\O)C(F)(F)F)c1,Ki,-,-,RF,-,0.0039 µM
CC(C)[C@H](NC(=O)COc1cccc2cnccc12)C(=O)N[C@@H](Cc1ccccc1)[C@H](O)C(=O)N1CSC[C@H]1C(=O)NC(C)(C)C,Ki,-,HPLC,-,-,0.001498 µM
O=C1N(Cc2cccc(-c3ncc[nH]3)c2)[C@H](Cc2ccccc2)[C@H](O)[C@@H](O)[C@@H](Cc2ccccc2)N1Cc1cccc(-c2ncc[nH]2)c1,Ki,-,-,RF,-,0.00016 µM
CC(C)(C)NC(=O)[C@@H]1C[C@@H]2CCCC[C@@H]2CN1C[C@@H](O)[C@H](Cc1ccccc1)NC(=O)[C@@H](NC(=O)c1ccc2ccccc2n1)C(C)(C)S(C)(=O)=O,IC50,-,-,-,-,0.0005 µM
Cc1ccc(Cl)cc1N1CCN(Cc2cn([C@@H](Cc3ccccc3)[C@H](Cc3ccccc3)NC(=O)OC3CCCC3)nn2)CC1,IC50,-,fluorescence,-,-,<5 µM
CC[C@H](C)[C@H](NC(C)=O)C(=O)N[C@@H](CO)C(=O)N[C@@H](Cc1ccc2ccccc2c1)C(=O)N[C@@H](CCC(=O)O)C(=O)N[C@@H](CC(C)C)C(=O)O,IC50,-,fluorescence,-,-,0.3 µM
CC(C)[C@H](NC(=O)OCc1ccccn1)C(=O)NC(Cc1ccccc1)C(O)C(F)(F)C(N)Cc1ccccc1,IC50,-,fluorescence,-,-,~0.1 µM
CC(C)(C)OC(=O)N[C@@H](Cc1ccccc1)C(=O)N[C@@H](Cc1ccccc1)[C@H](O)CNC[C@@H](O)[C@H](Cc1ccccc1)NC(=O)OC(C)(C)C,IC50,-,HPLC,-,pH 5.5,~10 µM
Cc1ccc(Cl)cc1N1CCN(Cc2cn([C@@H](Cc3ccccc3)[C@H](Cc3ccccc3)NC(=O)NC3CCCCC3)nn2)CC1,IC50,-,fluorescence,-,-,>5 µM
O=C1N(Cc2cccc(-c3ccn[nH]3)c2)[C@H](Cc2ccccc2)[C@H](O)[C@@H](O)[C@@H](Cc2ccccc2)N1Cc1cccc(-c2ccn[nH]2)c1,Ki,-,-,RF,-,0.000027 µM
CC(C)[C@H](N)C(=O)N[C@@H](Cc1ccccc1)[C@H](O)CNC[C@@H](O)[C@H](Cc1ccccc1)NC(=O)[C@@H](N)C(C)C,IC50,-,HPLC,-,pH 5.5,>10 µM
CC(C)[C@H](NC(=O)OCc1ccccc1)C(=O)NC(Cc1ccccc1)C(O)C(Cc1ccccc1)NC(=O)OC(C)(C)C,IC50,-,fluorescence,-,-,>0.01 µM
C/C(=N\O)c1cccc(CN2[C@H](COc3ccccc3)[C@H](O)[C@@H](O)[C@@H](COc3ccccc3)N(Cc3cccc(/C(C)=N/O)c3)S2(=O)=O)c1,Ki,-,-,-,-,0.059 µM
CC(C)[C@H](NC(=O)N(C)Cc1ccccn1)C(=O)N[C@@H](Cc1ccccc1)[C@@H](O)[C@H](O)[C@H](Cc1ccccc1)NC(=O)[C@@H](NC(=O)N(C)Cc1ccccn1)C(C)C,IC50,-,fluorescence,-,-,>0.001 µM
CC(C)C[C@H](NC(=O)[C@H](CC(=O)O)NC(=O)[C@@H](N)Cc1ccc(O)cc1)C(=O)O,IC50,-,fluorescence,-,-,9 µM

For reference, 6 entries again:

smiles | read-out | changes | read by | strain or isolate | setting | value
C/C(=N\O)c1cccc(CN2[C@H](COc3ccccc3)[C@H](O)[C@@H](O)[C@@H](COc3ccccc3)N(Cc3cccc(/C(C)=N/O)c3)S2(=O)=O)c1 | Ki | - | - | - | - | 0.059 µM
CCCC(=O)c1cccc(CN2C(=O)N(Cc3cccc(C(=O)CCC)c3)[C@H](Cc3ccccc3)[C@H](O)[C@@H](O)[C@H]2Cc2ccccc2)c1 | Ki | - | fluorescence | RF | - | 0.0014 µM
CC(C)(C)OC(=O)NC(Cc1ccccc1)C(O)C(Cc1ccccc1)NC(=O)[C@H](CC(N)=O)NC(=O)OCc1ccccc1 | IC50 | - | fluorescence | - | - | <0.1 µM
CSC[C@H](NC(=O)COc1cccc(Nc2ccccc2)c1)C(=O)N[C@@H](Cc1ccccc1)[C@H](O)C(=O)N1CSC(C)(C)[C@H]1C(=O)NC(C)(C)C | Ki | - | HPLC | - | - | 0.000184 µM
CC(C)(C)OC(=O)N[C@@H](Cc1ccccc1)C(=O)N[C@@H](Cc1ccccc1)[C@H](O)CNC[C@@H](O)[C@H](Cc1ccccc1)NC(=O)OC(C)(C)C | IC50 | - | HPLC | - | pH 5.5 | ~10 µM
CC(C)C[C@@H](C=O)NC(=O)[C@H](CCC(=O)O)NC(=O)[C@H](Cc1ccc(O)cc1)NC(=O)CCCc1ccccc1 | Ki | - | fluorescence | - | - | 11 µM

Rows are shuffled and stem from different studies. ICn is the concentration giving n% inhibition.